PubChem BioAssay AID624099 | ICCB-Longwood, 2012

Aim: 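Host factors E2 relies on to silence an HPV18 LCR reporter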 (primary screen)
Cells: human C33A cervical carcinoma cells (HPV-negative) stably expressing BPV1 E2 and an HPV18 LCR luciferase reporter
Reagents: siRNA pool against human genes, 40 nM
Time to read-out: 72 h
Read-out: 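Per-well luciferase luminescence, z-scored on each plate against the plate mean and SD with control wells left out, then averaged across three replicate plates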
Reading the numbers: mean z-score and z-score: higher = stronger reporter signal, weaker E2 silencing
Hit rule: 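Hit if mean z-score reaches 2 and two or more of three replicate z-scores also reach 2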
In all, the deposit lists about 21,000 reagents; below is a part drawn at random. 497 of them (2.4%) were called active. 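Higher z means weaker E2 silencing; only reporter increases were scored, and knock-downs that hurt cell survival may mask genuine repressor factors.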 A number with no mark means an inactive call. The numbers tell different reagents against one gene apart.

| target | pool no. | mean z-score | z-score, replicate A | z-score, replicate B | z-score, replicate C |
| --- | --- | --- | --- | --- | --- |
| CFAP91 (GeneID 89876) | 1 | 1.2 | 1.23 | 1.03 | 1.35 |
| COPS2 (GeneID 9318) | 1 | -0.94 | -0.37 | -1.15 | -1.3 |
| ADGRF1 (GeneID 266977) | 1 | 1.21 | 1.13 | 1.12 | 1.37 |
| ADGRF1 (GeneID 266977) | 2 | -0.41 | -0.33 | -0.43 | -0.46 |
| IL36R (GeneID 8808) | 1 | -0.08 | -0.18 | 0.09 | -0.16 |
| RYR2 (GeneID 6262) | 1 | 1.32 | 1.2 | 1.31 | 1.47 |
| MXD4 (GeneID 10608) | 1 | 2.16 (active) | 1.75 | 2.22 | 2.52 |
| FAM186B (GeneID 84070) | 1 | 0.27 | 0.8 | 0 | 0.01 |
| ZDHHC23 (GeneID 254887) | 1 | 0.68 | 0.63 | 0.91 | 0.51 |
| FLRT3 (GeneID 23767) | 1 | -0.28 | -0.22 | -0.31 | -0.29 |
| PIR (GeneID 8544) | 1 | 1.38 | 1.49 | 1.38 | 1.27 |
| MRPS17 (GeneID 51373) | 1 | 2.07 | 2.53 | 1.96 | 1.73 |
| DRP2 (GeneID 1821) | 1 | -0.01 | -0.45 | 0.27 | 0.16 |
| ZFP82 (GeneID 284406) | 1 | 1.15 | 1.14 | 1.08 | 1.25 |
| DNAH9 (GeneID 1770) | 1 | 0.11 | 0.18 | 0.23 | -0.07 |
| LOC390738 (retired record) (GeneID 390738) | 1 | 0.69 | 1.21 | 0.5 | 0.37 |
| LOC400572 (retired record) (GeneID 400572) | 1 | 0.1 | 0.1 | 0.27 | -0.05 |
| TMEM176B (GeneID 28959) | 1 | 0.31 | 0.55 | 0 | 0.37 |
| TRRAP (GeneID 8295) | 1 | 1.44 | 1.05 | 1.68 | 1.6 |
| SLC15A2 (GeneID 6565) | 1 | -0.6 | -0.42 | -0.53 | -0.86 |
| PAX1 (GeneID 5075) | 1 | -0.31 | -0.34 | -0.19 | -0.38 |
| ANKIB1 (GeneID 54467) | 1 | 1.72 | 1.86 | 1.69 | 1.61 |
| GHRH (GeneID 2691) | 1 | -0.54 | -0.54 | -0.56 | -0.53 |
| R3HDML (GeneID 140902) | 1 | -0.9 | -0.8 | -0.94 | -0.95 |
| LCE3A (GeneID 353142) | 1 | 0.44 | 0.42 | 0.3 | 0.61 |
| COL1A2 (GeneID 1278) | 1 | -0.72 | -0.82 | -0.78 | -0.54 |
| NR4A1 (GeneID 3164) | 1 | 0.97 | 0.87 | 0.81 | 1.24 |
| PYY (GeneID 5697) | 1 | 0.36 | -0.19 | 0.59 | 0.68 |
| RDH8 (GeneID 50700) | 1 | -0.92 | -0.85 | -1.18 | -0.72 |
| FBLN1 (GeneID 2192) | 1 | -0.46 | -0.42 | -0.57 | -0.38 |
| AURKA (GeneID 6790) | 1 | 0.21 | -0.08 | 0.21 | 0.49 |
| DEFA1 (GeneID 1667) | 1 | -1.06 | -1.11 | -1.03 | -1.03 |
| TIMM29 (GeneID 90580) | 1 | 0.67 | 0.75 | 0.36 | 0.89 |
| MARS2 (GeneID 92935) | 1 | 1.54 | 1.54 | 1.2 | 1.87 |
| RPS23P2 (GeneID 391701) | 1 | -0.08 | -0.59 | 0.09 | 0.28 |
| RNF25 (GeneID 64320) | 1 | -1.06 | -0.83 | -1.02 | -1.32 |
| UBE2Q2 (GeneID 92912) | 1 | -1.99 | -1.99 | -1.9 | -2.09 |
| CATSPER3 (GeneID 347732) | 1 | 0.53 | 0.91 | 0.33 | 0.34 |
| TNS1 (GeneID 7145) | 1 | 1.72 | 2.07 | 1.2 | 1.89 |
| FBXO3 (GeneID 26273) | 1 | 1.24 | 1.03 | 1.3 | 1.39 |
| NEK4 (GeneID 6787) | 1 | 0.23 | 0.08 | -0.01 | 0.62 |
| SEMG1 (GeneID 6406) | 1 | -0.17 | -0.35 | -0.09 | -0.08 |
| CBX5 (GeneID 23468) | 1 | 0.41 | 0.51 | 0.48 | 0.23 |
| TRH (GeneID 7200) | 1 | -0.09 | -0.03 | -0.14 | -0.1 |
| LOC388655 (retired record) (GeneID 388655) | 1 | -0.65 | -1.04 | -0.5 | -0.4 |
| MSLN (GeneID 10232) | 1 | 2.09 (active) | 2.09 | 1.75 | 2.43 |
| FLJ41170 (retired record) (GeneID 440200) | 1 | 0.34 | 0.02 | 0.53 | 0.45 |
| RRP1 (GeneID 8568) | 1 | -0.18 | -0.34 | -0.1 | -0.09 |
| SLC29A4P1 (GeneID 402509) | 1 | 1.08 | 0.89 | 1.1 | 1.25 |
| DGKH (GeneID 160851) | 1 | 0.99 | 1.05 | 1.03 | 0.89 |
| CAMK2N1 (GeneID 55450) | 1 | 1.31 | 1.58 | 1.57 | 0.77 |
| LOC401020 (retired record) (GeneID 401020) | 1 | 0.3 | 0.89 | 0.04 | -0.03 |
| DRC8 (GeneID 84288) | 1 | -0.39 | -0.74 | -0.18 | -0.24 |
| SMIM20 (GeneID 389203) | 1 | 0.75 | 0.03 | 1.02 | 1.19 |
| NUDT12 (GeneID 83594) | 1 | -0.8 | -0.93 | -0.59 | -0.87 |
| LIX1 (GeneID 167410) | 1 | -0.71 | -0.64 | -0.71 | -0.78 |
| ADGRF2P (GeneID 222611) | 1 | -0.53 | -0.56 | -0.75 | -0.3 |
| VPS37C (GeneID 55048) | 1 | -0.45 | -0.44 | -0.65 | -0.26 |
| ANKRD24 (GeneID 170961) | 1 | 0.65 | 0.62 | 0.34 | 0.99 |
| ZNF84 (GeneID 7637) | 1 | -0.33 | -0.47 | -0.08 | -0.43 |
| IGHV3OR16-17 (GeneID 390714) | 1 | 0.99 | 1.1 | 0.86 | 1.02 |
| SLC5A4 (GeneID 6527) | 1 | -0.37 | -0.22 | -0.47 | -0.42 |
| CIB4 (GeneID 130106) | 1 | 0.31 | 0.36 | 0.53 | 0.05 |
| NKAIN4 (GeneID 128414) | 1 | 1.62 | 1.77 | 1.45 | 1.63 |
| OR4X2 (GeneID 119764) | 1 | 0.06 | 0.08 | 0.05 | 0.06 |
| EXD3 (GeneID 54932) | 1 | 0.34 | 0.22 | 0.07 | 0.73 |
| RPL32 (GeneID 6161) | 1 | -3.22 | -3.45 | -3.16 | -3.06 |
| WNT10A (GeneID 80326) | 1 | -0.61 | -0.75 | -0.59 | -0.5 |
| SULT1A3 (GeneID 6818) | 1 | 1.52 | 1.68 | 1.48 | 1.41 |
| LINC00336 (GeneID 401253) | 1 | -0.12 | -0.08 | 0.05 | -0.33 |
| NOXA1 (GeneID 10811) | 1 | 0.2 | 0.13 | 0.45 | 0.03 |
| RNFT2 (GeneID 84900) | 1 | -1.08 | -1.28 | -1.11 | -0.86 |
| ZNRF4 (GeneID 148066) | 1 | 1.62 | 2.34 | 1.43 | 1.1 |

Part of the list above, reduced to “mean z-score”:
PIR (GeneID 8544) = 1.38
MRPS17 (GeneID 51373) = 2.07
DRP2 (GeneID 1821) = -0.01
